Results deposited as PubChem BioAssay AID624099 (ICCB-Longwood, 2012)
Test: 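Knock-downs relieving repression by E2 of an HPV18 LCR luciferase reporter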 (primary screen). System: human C33A cervical carcinoma cells (HPV-negative) stably expressing BPV1 E2 and an HPV18 LCR luciferase reporter. Reagents: siRNA pool against human genes, 40 nM. Timing: 72 h. Measurement: 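Per-well luciferase luminescence, z-scored on each plate against the plate mean and SD with control wells left out, then averaged across three replicate plates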. Reading the numbers: mean z-score and z-score: higher = stronger reporter signal, weaker E2 silencing. Active means: 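Mean z ≥ 2 together with z ≥ 2 in two or more of the three replicates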.
This is an unselected part of about 21,000 deposited reagents. In the full data, 497 (2.4%) got an active call. 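Higher z means weaker E2 silencing; only reporter increases were scored, and knock-downs that hurt cell survival may mask genuine repressor factors.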 Entries without a mark were called inactive. Reagent sequences are not shown.

| Target gene | mean z-score | z-score, replicate A | z-score, replicate B | z-score, replicate C |
| --- | --- | --- | --- | --- |
| OR3A2 | -0.01 | -0.07 | -0.3 | 0.34 |
| NOTO | 4.44 (active) | 3.93 | 4.6 | 4.77 |
| RRP12 | 0.08 | 0.31 | -0.27 | 0.19 |
| APOA4 | 1.16 | 1.04 | 1.23 | 1.2 |
| TAF6L | 2.65 (active) | 2.32 | 2.88 | 2.74 |
| ZNF324 | -1.23 | -1.02 | -1.47 | -1.21 |
| PRORSD1P | 0.32 | 0.07 | 0.41 | 0.46 |
| SLC25A5 | 0.11 | -0.08 | 0.34 | 0.09 |
| MAP3K2 | -0.5 | -0.52 | -0.16 | -0.82 |
| OR1B1 | -0.28 | -0.61 | -0.44 | 0.22 |
| RAMAC | 1.52 | 1.46 | 1.81 | 1.3 |
| SART1 | 0.15 | -0.08 | 0.28 | 0.24 |
| CDH19 | -0.57 | -1.01 | -0.19 | -0.51 |
| PBK | 1.68 | 2.35 | 1.13 | 1.56 |
| LOC401287 (retired record) | 0.76 | 1.03 | 0.71 | 0.55 |
| FAXDC2 | -0.6 | -0.44 | -0.49 | -0.86 |
| AQP7 | -0.64 | -0.45 | -0.61 | -0.86 |
| FAM120AOS | 0.7 | 0.94 | 0.45 | 0.7 |
| POLR3A | 0.4 | 0.34 | 0.33 | 0.55 |
| LOC388917 (retired record) | 0.21 | 0.34 | 0.18 | 0.11 |
| USO1 | -1.34 | -1.29 | -1.17 | -1.56 |
| TMEM109 | 0.37 | 0.42 | 0.51 | 0.19 |
| TRAPPC10 | -0.28 | 0.01 | -0.42 | -0.41 |
| DDX50 | -1.12 | -1.31 | -0.75 | -1.29 |
| ANXA2 | -0.75 | -0.36 | -0.95 | -0.94 |
| CEMIP2 | -0.87 | -0.62 | -1.35 | -0.65 |
| CLDN6 | -0.32 | -0.28 | -0.22 | -0.44 |
| CSGALNACT1 | -0.37 | -0.41 | -0.37 | -0.34 |
| THOC3 | -0.41 | -0.61 | -0.18 | -0.45 |
| ATM | -0.5 | -0.76 | -0.07 | -0.68 |
| ALPK1 | -0.23 | -0.65 | 0.05 | -0.1 |
| IFTAP | 0.54 | 0.87 | 0.76 | -0.02 |
| IRAG1 | -0.73 | -1.11 | -0.5 | -0.57 |
| ITPR1 | 0 | 0.22 | -0.09 | -0.13 |
| MLH3 | -0.24 | -0.18 | -0.29 | -0.26 |
| ZBTB38 | 1.28 | 1.63 | 1.04 | 1.18 |
| ASB16-AS1 | 0.58 | 0.57 | 0.64 | 0.52 |

The list goes on, starting with the last 4 of the part before.
| Target gene | mean z-score | z-score, replicate A | z-score, replicate B | z-score, replicate C |
| --- | --- | --- | --- | --- |
| ITPR1 | 0 | 0.22 | -0.09 | -0.13 |
| MLH3 | -0.24 | -0.18 | -0.29 | -0.26 |
| ZBTB38 | 1.28 | 1.63 | 1.04 | 1.18 |
| ASB16-AS1 | 0.58 | 0.57 | 0.64 | 0.52 |
| WDR25 | -0.69 | -0.43 | -0.93 | -0.72 |
| IPCEF1 | -0.83 | -0.98 | -0.69 | -0.81 |
| CHRNA2 | -0.6 | -0.66 | -0.65 | -0.49 |
| IFT172 | -1.5 | -1.76 | -1.33 | -1.39 |
| SMG5 | 0.1 | -0.17 | 0.09 | 0.37 |
| NR5A1 | 1.42 | 1.64 | 1.42 | 1.19 |
| CALML3 | -0.67 | -0.61 | -0.53 | -0.88 |
| ATOH7 | -0.41 | -0.29 | -0.66 | -0.29 |
| POU6F2 | 0.88 | 1 | 1.01 | 0.65 |
| LOC144631 (retired record) | -0.28 | -0.14 | -0.15 | -0.54 |
| SSU72P1 | 1.74 | 1.95 | 1.59 | 1.69 |
| SESN2 | -0.39 | -0.58 | -0.42 | -0.17 |
| FGR | -0.21 | 0.16 | -0.56 | -0.24 |
| PRMT1 | 1.87 | 1.64 | 2.31 | 1.65 |
| LIN28A | -0.1 | -0.16 | -0.07 | -0.07 |
| SLC35E2A | -2.56 | -2.54 | -2.45 | -2.7 |
| PIAS2 | 0.62 | 0.69 | 0.47 | 0.7 |
| APOC1 | 0.75 | 1.03 | 0.67 | 0.55 |
| EDEM2 | -1.12 | -0.72 | -1.03 | -1.63 |
| CEP76 | -0.65 | -1.05 | -0.75 | -0.16 |
